Anti-infective test results gathered from many reports (values: NIAID ChemDB through PubChem).

Shared fields: whole-cell or culture tests; agent: Herpes simplex virus 1; method: cytopathic effect; measure: EC50

ECn: concentration that inhibits the pathogen or its effect by n%. Blank or dashed fields: not listed here. Lines come from different laboratories, so protocols vary.

structure | changes | cell line | strain or isolate | value
CC1(C)C=Cc2c(cc(O)c3c2OC2c4ccc(O)cc4OC(C(C)(C)OO)CC2C3=O)O1 | - | VERO | 15577 | >100 µg/mL
O=c1[nH]c(=O)n([C@H]2C[C@H](O)[C@@H](CO)S2)cc1C1CCC1 | - | E6SM | KOS McIntyre F | 2.8 µM
O=C(O)P(=O)(O)O | - | HEL | KOS S2242-resistant | 110.8 µg/mL
CC#CSC[C@H]1O[C@@H](n2cnc3c(N)ncnc32)[C@H](O)[C@@H]1O | - | E6SM | VMW1837 (TK-) | 250 µM
Nc1ccn([C@@H]2O[C@H](C(O[C@@H]3O[C@H](CO)[C@@H](O)[C@H](N)[C@H]3O)[C@@H](O)[C@@H](O)[C@@H](O)[C@@H](O)CO)[C@@H](N)[C@H](O)[C@H]2O)c(=O)n1 | - | HeLa | KOS | >200 µg/mL
Oc1cccc(O)c1O | - | E6SM | B2006 (TK-) | 15 µg/mL
CCc1cn([C@H]2C[C@H](O)[C@@H](CO)S2)c(=O)[nH]c1=O | - | E6SM | KOS McIntyre F | 0.04 µM
CC(=O)O[C@H]1CC[C@@]2(C)C(CC[C@]3(C)C2CC=C2C4[C@@H](C)[C@H](C)CC[C@]4(C)CC[C@]23C)C1(C)C | - | VERO | 15577 | >100 µg/mL
Cc1cn([C@H]2C[C@H](O)[C@@H](CO)O2)c(=O)[nH]c1=O | - | E6SM | KOS McIntyre F | >2000 µM
O=c1[nH]cnc2c1ncn2CC(CO)OCP(=O)(O)O | - | Primary rabbit kidney cells | (TK-) 2 strains | >400 µg/mL
Nc1nc(NC2CC2)c2ncn([C@H]3C=C[C@@H](COP4(=O)OCc5cc(Cl)ccc5O4)C3)c2n1 | - | E6SM | KOS | 24 µg/mL
CC(=O)[C@]1(O)Cc2c(O)c3c(c(O)c2[C@@H](O[C@H]2C[C@H](N)[C@H](O)[C@H](C)O2)C1)C(=O)c1c(O)cccc1C3=O | - | HeLa | KOS | >200 µg/mL
Cc1cn([C@H]2C[C@H](O)[C@@H](CO)S2)c(=O)[nH]c1=O | - | E6SM | KOS McIntyre F | 0.013 µM
NC1=Nc2c(ncn2CCCCC(F)(F)P(=O)(O)O)C(=O)C1 | - | VERO | - | >250 µM
Nc1ncnc2c1ccn2[C@@H]1O[C@H](CO)[C@H](O)[C@H]1O | - | PRK | KOS | 0.2 µg/mL
Cc1c(CC(=O)O)ccc(O)c1O | - | E6SM | B2006 (TK-) | 40 µg/mL
Cc1cccc2c1OP(=O)(OCCOCn1cnc3c(=O)[nH]c(N)nc31)OC2 | - | VERO | KUPKA | 0.47 µM
CC(C)(O)CCc1c(-c2ccc(O)cc2O)oc2c3c(cc(O)c2c1=O)OC(C)(C)C=C3 | - | VERO | 15577 | >100 µg/mL
Cn1cc(NC(=O)c2cc(NC(=O)CN=C(N)N)cn2C)c(C(=O)NCCC(=N)N)c1 | - | PRK | KOS | ≥40 µg/mL
C[C@H](NP(=O)(N[C@@H](C)C(=O)OC(C)(C)C)OC[C@H]1O[C@@H](n2cnc(C(N)=O)c2N)[C@H](O)[C@@H]1O)C(=O)OC(C)(C)C | TK- | HEL | KOS | >100 µM
Nc1nc2c(ncn2CCC(CO)CO)c(=O)[nH]1 | - | HEL | KOS PMEA-resistant | 0.14 µg/mL
Cc1cccc2c1OP(=O)(OCC(CO)CCn1cnc3c(=O)[nH]c(N)nc31)OC2 | - | VERO | KUPKA | 57.2 µM
O=C(O)c1cc(O)ccc1O | - | E6SM | B2006 (TK-) | 20 µg/mL
NC(=O)c1cn([C@H]2C[C@H](O)[C@@H](CO)O2)c2ncnc(N)c12 | - | PRK | KOS | 2 µg/mL
O=c1[nH]c(=O)n([C@H]2C[C@H](O)[C@@H](CO)S2)cc1C1CC1 | - | E6SM | KOS McIntyre F | 0.17 µM
NC(=O)c1cn([C@@H]2O[C@H](CO)[C@@H](O)[C@@H]2O)c2ncnc(N)c12 | - | PRK | KOS | 4 µg/mL
O=c1[nH]c(=O)n([C@H]2C[C@H](O)[C@@H](CO)O2)cc1C1CCC1 | - | E6SM | KOS McIntyre F | 34 µM
Nc1nc2c(ncn2COC(CO)CO)c(=O)[nH]1 | - | HEL | KOS HPMPC-resistant | 0.004 µg/mL
CC1(C)OC2C(O1)[C@@H](COS(=O)(=O)NC(=O)O[C@H]1O[C@H](COCc3ccccc3)[C@@H](OCc3ccccc3)[C@H](OCc3ccccc3)[C@H]1OCc1ccccc1)O[C@H]2n1ccc(=O)[nH]c1=O | - | - | - | 85 µM
NC(=O)c1csc([C@@H]2O[C@H](CO)[C@@H](O)[C@H]2O)n1 | - | HeLa | KOS | 130 µg/mL
Nc1ncnc2c1ncn2C[C@@H](CO)OCP(=O)(O)O | - | HEL | KOS GCV-resistant | 0.1 µg/mL
Nc1nc2c(ncn2COCCOP2(=O)OCc3ccccc3O2)c(=O)[nH]1 | - | E6SM | TK-deficient acyclovir-resistant | 4.8 µg/mL
C=C(/C=C/P(=O)(O)O)CCn1cnc2c(=O)[nH]c(N)nc21 | - | VERO | HF | >125 µM
O=c1[nH]cnc2c1ncn2CCOCP(=O)(O)O | - | Primary rabbit kidney cells | (TK-) 2 strains | >400 µg/mL
CC(C)=CCC/C(C)=C/Cc1cc(-c2cc(=O)c3c(O)cc(O)cc3o2)ccc1O | - | VERO | 15577 | >100 µg/mL
N#Cc1cc2ccncc2c2sc3ccccc3c12 | - | MRC-5 | MCRAE | <1 µg/mL
Nc1ncc2c(ncn2COC(CO)CO)n1 | - | HEL | KOS PFA-resistant | 0.8 µg/mL
Cc1cccc2c1OP(=O)(OC[C@@H]1C=C[C@H](n3cnc4c(NC5CC5)nc(N)nc43)C1)OC2 | - | E6SM | KOS | 4.8 µg/mL
C=CCCCCCCCCC(=O)O | - | HeLa | KOS | >200 µg/mL
NC(=O)c1cc2ccncc2c2sc3ccccc3c12 | - | MRC-5 | MCRAE | 0.08 µg/mL
Nc1ncnc2c1ncn2[C@@H]1O[C@H](CO)C[C@@H]1O | - | - | B2006 (TK-) | 5.6 µg/mL
CC1=C(/C=C/C(C)=C/C=C/C(C)=C/C=O)C(C)(C)CCC1 | - | HeLa | KOS | >200 µg/mL
Cc1cc(O)ccc1O | - | E6SM | KOS | 120 µg/mL
Nc1nc2c(ncn2[C@H]2C=C[C@@H](CO)C2)c(=O)[nH]1 | - | E6SM | TK-deficient acyclovir-resistant | 32 µg/mL
NC1=Nc2c(ncn2CCC(/C=C/P(=O)(O)O)CO)C(=O)C1 | - | VERO | - | >250 µM
Cc1ccc2c(c1)COP(=O)(OCCOCn1cnc3c(=O)[nH]c(N)nc31)O2 | - | E6SM | KOS | 0.26 µg/mL
Nc1nc(N)c2ncn(CC(CO)OCP(=O)(O)O)c2n1 | - | Primary rabbit kidney cells | 3 strains | 10 µg/mL
O=c1[nH]c(=O)n([C@H]2C[C@H](O)[C@@H](CO)O2)cc1C1CCCCC1 | - | E6SM | KOS McIntyre F | >1200 µM
C[C@H]1C[C@@H](n2cnc3c(N)ncnc32)[C@H](O)[C@@H]1O | - | E6SM | KOS | 300 µg/mL
Nc1nc2c(ncn2CC(CO)OCP(=O)(O)O)c(=O)[nH]1 | - | Primary rabbit kidney cells | (TK-) 2 strains | 7 µg/mL
Nc1ncnc2c1ncn2C[C@@H](CO)OCP(=O)(O)O | - | - | B2006 (TK-) | 0.4 µg/mL
Nc1nc2c(ncn2CCC(CO)CO)c(=O)[nH]1 | - | VERO | KUPKA | 1.15 µM
Nc1ncnc2c1ncn2C[C@@H](CO)OCP(=O)(O)O | - | Primary rabbit kidney cells | (TK-) 2 strains | 2 µg/mL
O=C(NS(=O)(=O)OCCOCn1ccc(=O)[nH]c1=O)O[C@H]1O[C@H](COCc2ccccc2)[C@@H](OCc2ccccc2)[C@H](OCc2ccccc2)[C@H]1OCc1ccccc1 | - | - | - | 30 µM
Nc1ncnc2c1ncn2C[C@H](O)CO | - | PRK | KOS | >400 µg/mL
CN[C@@H]1C[C@H](N)[C@@H](O)[C@H](O[C@@H]2O[C@H](CO)[C@H](O)[C@@H]3OC4(O[C@H]23)O[C@H]([C@@H](N)CO)[C@H](O)[C@H](O)[C@H]4O)[C@H]1O | - | HeLa | KOS | >100 µM
Nc1nc2c(ncn2COCCOP2(=O)OCc3ccccc3O2)c(=O)[nH]1 | - | VERO | B2006 (TK-) | 1.62 µM

Repeating the final 7 entries:

| structure | changes | cell line | strain or isolate | value |
|---|---|---|---|---|
| Nc1ncnc2c1ncn2C[C@@H](CO)OCP(=O)(O)O | - | - | B2006 (TK-) | 0.4 µg/mL |
| Nc1nc2c(ncn2CCC(CO)CO)c(=O)[nH]1 | - | VERO | KUPKA | 1.15 µM |
| Nc1ncnc2c1ncn2C[C@@H](CO)OCP(=O)(O)O | - | Primary rabbit kidney cells | (TK-) 2 strains | 2 µg/mL |
| O=C(NS(=O)(=O)OCCOCn1ccc(=O)[nH]c1=O)O[C@H]1O[C@H](COCc2ccccc2)[C@@H](OCc2ccccc2)[C@H](OCc2ccccc2)[C@H]1OCc1ccccc1 | - | - | - | 30 µM |
| Nc1ncnc2c1ncn2C[C@H](O)CO | - | PRK | KOS | >400 µg/mL |
| CN[C@@H]1C[C@H](N)[C@@H](O)[C@H](O[C@@H]2O[C@H](CO)[C@H](O)[C@@H]3OC4(O[C@H]23)O[C@H]([C@@H](N)CO)[C@H](O)[C@H](O)[C@H]4O)[C@H]1O | - | HeLa | KOS | >100 µM |
| Nc1nc2c(ncn2COCCOP2(=O)OCc3ccccc3O2)c(=O)[nH]1 | - | VERO | B2006 (TK-) | 1.62 µM |